Reference: ChEMBL document CHEMBL1154414, “In vitro and in vivo activities of T-705 against arenavirus and bunyavirus infections” (Antimicrob Agents Chemother, 2007)

Test system: Punta Toro virus
Experiment: Antiviral activity against 5000 PFU Punta Toro virus Adames infected C57BL/6 mouse assessed as survival at 10 mg/kg, po twice daily for 5 days administered 24 hrs post viral challenge
Format: functional

## NC(=O)c1ncn([C@@H]2O[C@H](CO)[C@@H](O)[C@H]2O)n1 [RIBAVIRIN]
  Survival: 10%
